Data: patent US20200339636A1 (CHILDREN S MEDICAL CENTER, published 2020)

Assays:
[1] = target: Recombinant full length TcdB (C. difficile strain VPI 10463), 6xHis-tagged (Clostridium difficile strain VPI 10463, UniProt P18177 1-2366); experiment: BLI, CRD5-Fc pre-mixed with Wnt3A on the biosensor, 1 µM TcdB
[2] = target: sTcdB (TcdB residues 1285-1804), wild type, with C-terminal HA tag (Clostridium difficile, UniProt P18177 1285-1804)

B1: FZD5^CRD-Fc (recombinant human, Sino Biologics) (Fc fusion, UniProt Q13467 27-167, looked up)
chain: ASKAPVCQEITVPMCRGIGYNLTHMPNQFNHDTQDEAGLEVHQFWPLVEIQCSPDLRFFLCSMYTPICLPDYHKPLPPCRSVCERAKAGCSPLMRQYGFAWPERMSCDRLPVLGRDAEVLCMDYNRSEATTAPPRPFPAKP
notes: domain: CRD; also called CRD5; CRD5-Fc; not shown: Fc tag of the bought protein
Does B1 bind [1]?
Result: binds

B2: FZD4^CRD-Fc (recombinant human, Sino Biologics) (Fc fusion)
chain: FGDEEERRCDPIRISMCQNLGYNVTKMPNLVGHELQTDAELQLTTFTPLIQYGCSSQLQFFLCSVYVPMCTEKINIPIGPCGGMCLSVKRRCEPVLKEFGFAWPESLNCSKFPPQNDHNHMCMEGPGDEEVPLPHKTPIQPGEE
notes: domain: CRD
Does B2 bind [2]?
Result: binds

B3: FZD8^CRD-Fc (recombinant human, R&D Systems) (Fc fusion)
chain: ASAKELACQEITVPLCKGIGYNYTYMPNQFNHDTQDEAGLEVHQFWPLVEIQCSPDLKFFLCSMYTPICLEDYKKPLPPCRSVCERAKAGCAPLMRQYGFAWPDRMRCDRLPEQGNPDTLCMDYNRTDLTT
notes: domain: CRD
Does B3 bind [2]?
Result: binds
